Holding throughout (experiment): pseudovirus neutralization IC50; higher = weaker neutralization
The target in assay [1] is SARS-CoV-2 Omicron BA.1 spike pseudovirus. How it is done: (§1)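 Single-round VSV luciferase pseudovirus mixed with antibody dilutions for 1 h and put on Huh-7 cells for about a day; IC50 from the dose curve.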
Assay [2] concerns the target SARS-CoV-2 Omicron BA.2 spike pseudovirus. As to the method: as §1
Assay [3] addresses SARS-CoV-2 Omicron BA.2.75 spike pseudovirus. As to the method:
as §1

For assay [4], the target named is SARS-CoV-2 Omicron BA.5 spike pseudovirus. How it is done:
as §1

Assay [5] concerns the target SARS-CoV-2 Omicron BQ.1.1 spike pseudovirus. How it is done: as §1
Assay [6] has as its target SARS-CoV-2 Omicron XBB spike pseudovirus. As to the method:
as §1

Assay [7] deals with SARS-CoV-2 early D614G spike pseudovirus. How it is done: as §1

Human monoclonal antibodies against the spike receptor-binding domain (heavy:light variable regions). IC50 against pseudoviruses bearing the spike of naturally observed variants; lower = stronger; >10 µg/ml means not reached at the top dose. No active / inactive call. The stated detection limit is 0.0005 µg/ml; values near or below 0.001 µg/ml lie at the floor of the assay.

B1: BD55-6207 (protein)
chain 1: EVQLLESGGGLVQPGGSLRLSCAASGFTFSKYAMSWVRQAPGKGLEWVSVIYSGSDGTNYGEFVKGRFTISRDDSKSMVYLQMNSLRADDTAVYYCAKEDAMTTVGYYAMDVWGQGTTVTVSS
chain 2: DIQMTQSSSSLSASVGDRVTITCRASQSIGDYLNWYQQKPGKAPKLLIYAASRLQSGVPSRFTGSGSGTDFTLTITSLQPEDFATYYCQQSYSTPQWTFGQGTKLEIK
Consider B1, for which the “pseudovirus neutralization IC50” value in assay [1], in assay [2], in assay [3], in assay [4], in assay [5] and in assay [6] was greater than 10 µg/mL throughout. Besides, the “pseudovirus neutralization IC50” value in assay [7] was greater than 10 µg/mL.

B2: BD55-6221 (protein)
chain 1: QVQLVQSGTEVKKPGSSVRVSCKASGGTFRSYSISWVRQAPGQGLEWMGEIISFFRTTNYAQKFQGRVTITADESTSTAYMELSSLRSEDTAVYYCARDNLLSLVGSTIRDYYYMDVWGTGTTVIVSS
chain 2: DIQMTQSPSSLSASVGDRVTITCRASQNISNFLNWYQREQGKAPKLLIYAASTLQSGVPSRFSGSGSGTDFTLTLSSLQPEDFAIYYCQQSYNNPRTFGQGTKLEIK
Consider B2, for which the “pseudovirus neutralization IC50” value in assay [1], in assay [2], in assay [3], in assay [4], in assay [5] and in assay [6] was greater than 10 µg/mL each time. Further, the “pseudovirus neutralization IC50” value in assay [7] is greater than 10 µg/mL.

B3: BD55-6197 (protein)
chain 1: QVQLVQSGSELKKPGASVKVSCKASGYTFTTQAMNWVRQAPGQGLEWMGWINTNTGNPTYAQGFTGRFVFSLDTSVSTAYLQISSLKAEDTAVYYCARELNQGYSGYDWWDHDAFDIWGQGTMVTVSS
chain 2: QSALTQPPSASGSPGQSVTISCTGTSSDVGGYNYVSWYQQHPGKAPKLMIYEVSKRSSGVPDRFTGSKSGNTASLTVSGLQGEDEADYYCSSYAGSTTVVFGGGTKLTVL
On to B3, for which the “pseudovirus neutralization IC50” value in assay [1], in assay [2], in assay [3], in assay [4], in assay [5] and in assay [6] was greater than 10 µg/mL each time. In addition, the “pseudovirus neutralization IC50” value in assay [7] was determined as 0.138 µg/mL.

B4: BD55-6158 (protein)
chain 1: QVQLVQSGAEVRKPGASVKVSCKASGYTFTTYDINWVRQATGQGLEWMGWMNPNSGNTGYAHSFQSRVTMTRNTSISTAYMELSSLRGEDTAVYYCAIDAGGNKGYYYYYAMDVWGQGTTVTVSS
chain 2: DIQMTQSPSSLSASVGDRVTINCRASQSISTYLNWYQQKLGKAPNLLIYDASSLQTGVPSRFSGSGSGTDFTLTISSLQPEDFATYYCQQSYSSPPTFGQGTKVEIK
As for B4, the “pseudovirus neutralization IC50” value in assay [1], in assay [2], in assay [3], in assay [4], in assay [5] and in assay [6] was greater than 10 µg/mL each time. The “pseudovirus neutralization IC50” value in assay [7] was greater than 10 µg/mL.

B5: BD55-1177 (protein)
chain 1: VELVQSGAEVKKPGSSVKVSCKTSGDTFSRYAITWVRQVSGQGLEWMGRIIPLFDKGNYAQKFQGTVTFTADKSTGTAYMELSSLRSEDTAVYYCATSGFYSDGGGHYSEYWGQGTQVTVSS
chain 2: EIVLTQSPGTLSLSPGERATLSCRASQSVGGSFLAWYQQKPGQAPSLLIYGASTRATGIPDRFSGSGSGTDFSLSISRLEPEDFAVYYCQQYASAPRTFGQGTKVEI
Turning to B5, the “pseudovirus neutralization IC50” value in assay [1] was 0.00282 µg/mL; in assay [2], 0.00188 µg/mL; in assay [3] it was 0.00141 µg/mL; in assay [4] it was 0.737 µg/mL; in assay [5], 4.78 µg/mL; in assay [6], greater than 10 µg/mL. In addition, in assay [7], the “pseudovirus neutralization IC50” value stood at 0.001 µg/mL.

B6: BD55-6199 (protein)
chain 1: QITLKESGPTLVKPTQTLTLTCTFSGFSLSTSGVGVGWIRQPPGKALEWLALIYWDDDKRYSPSLKSRLTISKDTSKNQVVLTMTNMDPVDTATYYCAHSPGLYFYGSGSYYLYWGQGTLVTVSS
chain 2: EIVLTQSPGTLSLSPGERATLSCRASQSLSSSYLAWYQQKPGQAPRLLIYGDSSRATGIPDRFSGSGSGTDFTLTISRLEPEDFAVYYCQQYFSSPQTFGQGTKVEIK
For B6, the “pseudovirus neutralization IC50” value in assay [1], in assay [2], in assay [3], in assay [4], in assay [5] and in assay [6] was greater than 10 µg/mL throughout. For the same molecule, the “pseudovirus neutralization IC50” value in assay [7] was greater than 10 µg/mL.

B7: BD55-6224 (protein)
chain 1: QVQLVESGGGVVQPGRSLRLSCTASGFTFRSYGMHWVRQAPGKGLEWVAIIWYDGSKKYYADSVRGRFTISRDNSKNTLYMEMNSLGAEDTAVYYCARDSQCSGASCYFDYNWFDRWGQGTLVTVSS
chain 2: EIVLTQSPATLSLSPGERATLSCRTSQSISSNLAWYQQKPGQAPRLVIYDASNRATGIPARFSGSGSGTDFTLTISSLEPEDFAVYYCQQRHIWPPAYTFGQGTKLEIK
Turning to B7, the “pseudovirus neutralization IC50” value in assay [1], in assay [2], in assay [3], in assay [4], in assay [5] and in assay [6] was greater than 10 µg/mL throughout. Also, in assay [7], the “pseudovirus neutralization IC50” value was greater than 10 µg/mL.

B8: BD55-6246 (protein)
chain 1: QVQLVQSGAEVKKPGASVKVSCKASGYTFTTYDINWVRQAAGQGPEWMGWMNPNSGDTGYAHRFQDRVIMTRNTSISTAYMELSSLRSDDTAVYYCAIDSGFRAAYFYYYRMDVWGQGTTVTVSS
chain 2: DIQMTQSPSSLSASVGDRVTITCRASQSISDSLNWYQQKPGKAPNLLMSAASNLQSGVPSRFSGSGSGTDFTLTISSLQPEDFATYYCQQSYTFPTTFGGGTKVEIK
As to B8, the “pseudovirus neutralization IC50” value in assay [1], in assay [2], in assay [3], in assay [4], in assay [5] and in assay [6] was greater than 10 µg/mL in each case. Also, the “pseudovirus neutralization IC50” value in assay [7] is greater than 10 µg/mL.

B9: BD55-6209 (protein)
chain 1: QVTLKESGPVLVKPTETLTLTCTVSGFSLSSGKMGVGWIRQPPGKALEWLAHIFSNDEASYSTSLRSRLTISKDTSGNQVVLTMTNMDPVDTATYYCARLGSGSYYTNWFDPWGQGTLVTVSS
chain 2: ELTQPPSVSVSPGQTARITCSADGLSRQYANWYQKKPGQAPVLVIYKDSERPSGIPERFSGSSSGTTVTLTIGGVQAEDEADYYCQTADSSGTSVMFGGGTKLTVL
B9: the “pseudovirus neutralization IC50” value in assay [1], in assay [2], in assay [3], in assay [4], in assay [5] and in assay [6] was greater than 10 µg/mL throughout. Further, the “pseudovirus neutralization IC50” value in assay [7] was greater than 10 µg/mL.

B10: BD55-6194 (protein)
chain 1: EMQLVESGGGLVQPGRSLTLSCTASGFTLGDYTVNWVRQAPGKGLEWLGFIRNNAYGGAPEYAASVRGRFSVSRDDSKATAYLQMNGLKIEDTAVYYCAREGGSSGWSYYYYMDVWGKGTTVTVSS
chain 2: DIQMTQSPSSLSGSLGDRVTMTCRASQTISNYLNWYQQKPGRAPKLLIYAASTLQSGVPSRFTGSGSGTEFTLTITSLQPDDFATYICQQSYTSQYTFGQGTKLEIK
Regarding B10, the “pseudovirus neutralization IC50” value in assay [1], in assay [2], in assay [3], in assay [4], in assay [5] and in assay [6] was greater than 10 µg/mL in each case. The “pseudovirus neutralization IC50” value in assay [7] was greater than 10 µg/mL.

B11: BD55-1180 (protein)
chain 1: LVESGGGLVKAGGSLRLSCAASTFTFSDYQMTWFRQAPGKGLEWVSYINSRGDLTYYADSVKGRFTISRDNSKNSLFLQMNSLRVEDTAVYYCARDPVTPRRFDYWGQGTLVTVSS
chain 2: DIQMTQSPSSLSASVGDRVTITCQASQDINKYLNWYQQKPGKAPKLLIYDASGLETGVPSRFSGSGSGTDFTFSISSLQPEDFATYYCQQYDKLPLTFGQGTKLEIK
In the case of B11, the “pseudovirus neutralization IC50” value in assay [1], in assay [2], in assay [3], in assay [4], in assay [5] and in assay [6] was greater than 10 µg/mL in each case. Besides, in assay [7], the “pseudovirus neutralization IC50” value was found to be 0.001 µg/mL.

B12: BD55-6193 (protein)
chain 1: EVQLVESGGGFVKPGRSLRLACTASGFTFGDYTMSWFRQAPGKGLEWVGFIRNKGYGGTTEYAASVQGRFTISRDDSNSIAYLQMNSLKTEDTAVYFCAREGTFSYYYYYAMDVWGQGATVTVSS
chain 2: DIQMTQSPSSLSASVGDRVTITCRASQSISFYLNWYQQKPGKAPKLLIYGASTLQNGVPSRFSGSGSGTDFTLTISSLQPEDFATYYCQHSYSISITFGQGTRLEIK
As to B12, the “pseudovirus neutralization IC50” value in assay [1], in assay [2], in assay [3], in assay [4], in assay [5] and in assay [6] was greater than 10 µg/mL throughout. For the same molecule, the “pseudovirus neutralization IC50” value in assay [7] is 5.17 µg/mL.

(Values after the supplement of paper PMC9931576.)
